Experimental data as given in PMC4954732.

What was measured:
[1] = test system: CBC (HapB/HapC/HapE) + HapX; assay: SPR; settings: HapX co-injected on preformed CBC/DNA, SPR on immobilised biotinylated duplexes, 1:1 model with mass transport, pH and temperature not stated (protocols of refs 19, 54), recombinant protein, label: 5' biotin on strand 1
[2] = test system: CBC P88L (HapB/HapC/HapE P88L) (Aspergillus fumigatus); assay: SPR; settings: Kd only in figure; SPR on immobilised biotinylated duplexes, 1:1 model with mass transport; pH and temperature not stated (protocols of refs 19, 54); recombinant protein; label: 5' biotin on strand 1

| Sequence | binding result ([1]; combinatorial recognition not detectable) | binding result ([1]; synergistic, Kd only in figure) | binding result [2] |
| --- | --- | --- | --- |
| GCTGAGCCGAATGAATCACGCGGTCCGGATGTGTGCT (double strand) [cyp51A-TR34] | no binding |  |  |
| GCTGAGCCGAATGAAAGTTGCCTAATTACTAAGGTGT (double strand) [cyp51A-293] |  | binds | binds more weakly |

The exact form of at least one protein or probe is not confirmed. For part of these data: Negatives hold for the conditions tested. For part of these data: A weaker result is weaker than the reference pair of the same experiment.
